PubChem BioAssay AID504761 – Drosophila RNAi Screening Center | 2011
Test: 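Fly genes whose silencing reduces dengue virus type 2 infection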 (primary screen). Cell system: D.Mel-2 cells from Drosophila. Knock-down reagent: long dsRNA against Drosophila genes. Challenge: infection with dengue virus type 2; dose and infection time not stated. Measurement: 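Per well on two replicate plates, imaging gave the percent of cells positive for viral envelope protein, ranked by infection, and a nuclear count of cells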. Reading the numbers: infection score: higher = more virus-infected cells; cell count: higher = more cells in the well. Active means: 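Low infection ranks in the two replicates (chance level up to 0.065) followed by a retest with a 1.5-fold or larger significant decrease, p below 0.05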. Calls: active = confirmed: knock-down lowers infection; inactive = not picked or not confirmed.
The screen tested about 22,000 reagents; below is a random part of those that have a named target and a result. Of all reagents, 116 (0.52%) are marked active. 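Calls depend on retest data that are not deposited; infection was ranked per plate without normalising between plates; the unit of the infection score is not given.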 Raw values vary from plate to plate and are shown uncorrected. A number with no mark means an inactive call. Further read-outs or replicates are left out here. Not given: the amount of reagent, the time to read-out.

Silencing of Pym (GeneID 37780) [SID104202374] came out at: infection score, replicate 1 = 2.12; cell count, replicate 1 = 5945.
Against P5CS (GeneID 40443) [SID104191623] the deposit lists infection score, replicate 1 = 1.69; cell count, replicate 1 = 6702.
After knock-down of P5CS (GeneID 40443) [SID104191624] the results were infection score, replicate 1 = 3.71; cell count, replicate 1 = 6625.
Whamy (GeneID 41198) [SID104194366] gave infection score, replicate 1 = 4.68; cell count, replicate 1 = 6561.
With knock-down of Whamy (GeneID 41198) [SID104206663], the screen gave infection score, replicate 1 = 12.4; cell count, replicate 1 = 6478.
CG15731 (GeneID 32194) [SID104199490] showed infection score, replicate 1 = 7.93; cell count, replicate 1 = 6067.
CG15731 (GeneID 32194) [SID104201472] scored infection score, replicate 1 = 4.42; cell count, replicate 1 = 6767.
With knock-down of CG15731 (GeneID 32194) [SID104204688], the screen gave infection score, replicate 1 = 3.78; cell count, replicate 1 = 6275.

Just “cell count, replicate 1” (2 entries from above):
CG15731 (GeneID 32194) [SID104201472]	6767
CG15731 (GeneID 32194) [SID104204688]	6275

Further results:
Depletion of CG15912 (GeneID 31385) [SID104197897] came out at: infection score, replicate 1 = 17.6; cell count, replicate 1 = 4282.
Against CG15912 (GeneID 31385) [SID104206819], the values are infection score, replicate 1 = 8.1; cell count, replicate 1 = 5592.
Silencing of Treh (GeneID 45368) [SID104184340] came out at: infection score, replicate 1 = 9.77; cell count, replicate 1 = 6826.
For Treh (GeneID 45368) [SID104207265], the entry reads infection score, replicate 1 = 9.41; cell count, replicate 1 = 2858.
